Assay results taken from PMC5394239, “Cryo-EM structures of MERS-CoV and SARS-CoV spike glycoproteins reveal the dynamic receptor binding domains” (2017).

Target: MERS-CoV S2 subunit of the thrombin-treated S ectodomain (cleaved after R748) (MERS-CoV) (UniProt K9N5Q8)
Assay: cryo-EM structure

Substance: MERS-CoV S2 subunit of the thrombin-treated S ectodomain (cleaved after R748) (from UniProt K9N5Q8 749-1294) (domain or fragment)
- stoichiometry N: 3
